Compound potency records, mixed from different reports. Data source: NIAID ChemDB in PubChem.

All rows: whole-cell or culture tests; species: Human cytomegalovirus; cell line: HEL; endpoint: EC50

Blank or dashed fields: not listed here.

| SMILES | strain | method | value |
|---|---|---|---|
| Cc1ccn2c(CSCc3ccccc3)cnc2c1 | AD169 | cytopathic effect | 3.5 µg/mL |
| CCCCCCC#Cc1c[nH]c(=O)[nH]c1=O | AD169 | cytopathic effect | >400 µM |
| Cc1cccn2c(CSCc3ccccc3)cnc12 | AD169 | plaque count | 0.2 µg/mL |
| CCCCCCCCC#Cc1c[nH]c(=O)[nH]c1=O | AD169 | cytopathic effect | >400 µM |
| Nc1nc2c(ncn2CC(CO)OCP(=O)(O)O)c(=O)[nH]1 | DAVIS | plaque count | 0.7 µg/mL |
| CCCCCCCCCCc1cc2cn(C3CCCO3)c(=O)nc2o1 | DAVIS | plaque count | >200 µM |
| Nc1ccn(C(CF)CCCO)c(=O)n1 | AD169 | cytopathic effect | >50 µg/mL |
| Nc1ccn(C[C@@H](CO)OCP(=O)(O)O)c(=O)n1 | AD169 | plaque count | 0.38 µg/mL |
| Cc1c(Br)cc(Br)c2ncc(CSCc3ccc(F)cc3)n12 | DAVIS | plaque count | >5 µg/mL |
| Nc1ccn([C@@H]2C=C(CO)[C@@H](O)[C@H]2O)c(=O)n1 | AD169 | plaque count | 0.6 µg/mL |
| Cc1ccn2c(C3SCCS3)cnc2c1 | DAVIS | - | 64 µM |
| Cc1c(Br)cc(Br)c2ncc(CSCc3ccccc3Cl)n12 | DAVIS | plaque count | >5 µg/mL |
| Cc1cc([C@H]2C[C@H](O)[C@@H](CO)O2)c(F)cc1F | DAVIS | cytopathic effect | >200 µM |
| Nc1ncnc2c1nnn2[C@@H]1C=C(CO)[C@@H](O)[C@H]1O | AD169 | plaque count | 4.97 µg/mL |
| CCCCCCCc1cc2cn(CCC(C)C)c(=O)nc2o1 | DAVIS | plaque count | 50 µM |
| OC[C@H]1O[C@@H](c2ccc(F)cc2F)C[C@@H]1O | AD169 | cytopathic effect | >200 µM |
| O=c1[nH]cnc2c1ncn2C1C[C@H](CO)[C@@H](CO)C1 | DAVIS | - | >100 µg/mL |
| CCCCCCCCc1cc2cn(CCC(C)C)c(=O)nc2o1 | DAVIS | plaque count | >200 µM |
| N#CC1=C(c2ccccc2)Nc2sccc2S1(=O)=O | DAVIS | cytopathic effect | >50 µg/mL |
| Nc1ncnc2c1ncn2C(CF)CCCO | DAVIS | cytopathic effect | >50 µg/mL |
| O=c1ccn([C@@H]2C[C@H](CO)C[C@H]2CO)c(=O)[nH]1 | DAVIS | - | >100 µg/mL |
| Nc1nc2c(ncn2COC(CO)CO)c(=O)[nH]1 | AD169 | plaque count | 1.9 µg/mL |
| Nc1nc2ncn(CCOCP(=O)(O)O)c2c(=O)[nH]1 | AD169 | plaque count | 2 µg/mL |
| Cc1cn(CCCC(O)CF)c(=O)[nH]c1=O | AD169 | cytopathic effect | >50 µg/mL |
| CO[C@H](CO)[C@@H](O)CCn1cnc2c(N)ncnc21 | AD169 | cytopathic effect | >400 µg/mL |
| CCCCCCCC/C=C/CCCCCCCC(=O)O | AD169 | cytopathic effect | >100 µM |
| CCCCCCCCC#Cc1cn(S(=O)(=O)c2ccc(C)cc2)c(=O)[nH]c1=O | DAVIS | cytopathic effect | >16 µM |
| Nc1nc2c(ncn2COC(CO)CO)c(=O)[nH]1 | LY9990 | plaque count | 7.5 µg/mL |
| Cc1c(Br)cc(Br)c2ncc(CSC(C)c3cccs3)n12 | DAVIS | plaque count | >50 µg/mL |
| CC(=O)c1ccc(NC(=O)CN2C(=O)c3ccccc3S2(=O)=O)cc1 | DAVIS | plaque count | >100 µM |
| CCCCCCCC/C=C/CCCCCCCC(=O)OCC(CO)OCn1cnc2c(=O)[nH]c(N)nc21 | DAVIS | cytopathic effect | 3.5 µM |
| OC[C@H]1O[C@@H](c2ccccc2)C[C@@H]1O | DAVID | plaque count | >100 µg/mL |
| Nc1ccn(CC[C@H](O)CCO)c(=O)n1 | AD169 | cytopathic effect | >400 µg/mL |
| Nc1ccn(C[C@H]2COP(=O)(O)CO2)c(=O)n1 | AD169 | plaque count | 0.4 µg/mL |
| Cc1ccn2c(CSCc3ccccc3)c(-c3ccccn3)nc2c1 | AD169 | cytopathic effect | 0.6 µg/mL |
| Nc1nc2c(ncn2CCC(CO)CO)c(=O)[nH]1 | AD169 | plaque count | >50 µg/mL |
| O=C1NCC2(C(=O)C3C=CC=CC13)C1CC3CC(C1)CC2C3 | DAVIS | plaque count | >20 µg/mL |
| CC(C)Nc1ncnc2c1ncn2C1C[C@H](CO)[C@@H](CO)C1 | DAVIS | - | >100 µg/mL |
| Cc1ccn2c(CSCCc3ccccc3)c(-c3cccs3)nc2c1 | DAVIS | cytopathic effect | 1.6 µg/mL |
| CCCCCCCCc1cc2cnc(=O)[nH]c2o1 | AD169 | cytopathic effect | >400 µM |
| Cc1ccn2c(CSCc3ccccc3)c(-c3cccnc3)nc2c1 | DAVIS | cytopathic effect | 50 µg/mL |
| Cc1c(Br)cc(Br)c2ncc(CSCc3ccccc3)n12 | DAVIS | plaque count | >50 µg/mL |
| CO[C@H](CO)[C@@H](O)CCn1cc(C)c(=O)[nH]c1=O | AD169 | cytopathic effect | >400 µg/mL |
| Nc1nc2c(ncn2C[C@]2(CO)C[C@H]2CO)c(=O)[nH]1 | DAVIS | plaque count | 12 µg/mL |
| O=C1c2ccccc2[C@@]2(O)[C@H]3C4CC5CC(C4)CC3(C5)CN12 | DAVIS | plaque count | >20 µg/mL |
| Cc1nc2ccccn2c1NC(=O)c1ccccc1 | AD169 | cytopathic effect | >50 µg/mL |
| CO[C@@H]1[C@H](O)[C@@H](CO)O[C@H]1c1ccccc1 | DAVID | plaque count | >50 µg/mL |
| N#CC1C(c2ccccc2)Nc2ccccc2S1(=O)=O | AD169 | cytopathic effect | 28 µg/mL |
| Cc1cn(CC[C@H](O)CCO)c(=O)[nH]c1=O | DAVIS | cytopathic effect | >400 µg/mL |
| CCCCOC[C@H]1O[C@@H]2CC(C)(C)C[C@@H]2[C@H]1OCCCC | DAVID | plaque count | 7.6 µg/mL |
| Nc1ccn(C[C@@H](CO)OCP(=O)(O)O)c(=O)n1 | AD169 | cytopathic effect | 0.15 µM |
| C/C(=N/Nc1nc(-c2ccc(C)cc2)cs1)c1ccc(NC(=O)CN2C(=O)c3ccccc3S2(=O)=O)cc1 | AD169 | plaque count | 20 µM |
| CC(C)(C)c1nc2ccccn2c1NC(=S)Nc1ccccc1 | AD169 | cytopathic effect | >50 µg/mL |
| Nc1ccn(C[C@@H](CO)OCP(=O)(O)O)c(=O)n1 | DAVIS | plaque count | 1.84 µM |
| Cc1c(S(=O)(=O)c2ccc(Cl)cc2)c(NC(=O)C(F)(F)F)n(Cc2ccccc2)c1C | DAVIS | cytopathic effect | 1.9 µg/mL |
| Cc1ccn2c(C3OCCS3)cnc2c1 | DAVIS | - | >106 µM |
| CC(C)NS(=O)(=O)c1ccccc1C(=O)N/N=C/c1ccccc1 | AD169 | plaque count | >100 µM |
| OC[C@H]1O[C@H](c2ccc(F)cc2F)C[C@@H]1O | AD169 | cytopathic effect | >200 µM |
| O=C(O)P(=O)(O)O | LY9725 (ganciclovir-resistant) | plaque count | 80.6 µM |
| O=C(O)c1ccccc1C(=O)NC12CC3CC(C1)CC(C(=O)O)(C3)C2 | DAVIS | plaque count | >100 µg/mL |
| Cc1cccn2c(C3OCCO3)cnc12 | DAVIS | - | >116 µM |
| CCCCCCC#Cc1cn(S(=O)(=O)c2ccc(C)cc2)c(=O)[nH]c1=O | AD169 | cytopathic effect | >16 µM |
| COC(=O)C12CC3CC(C1)CC(N1C(=O)c4ccccc4C1=O)(C3)C2 | AD169 | plaque count | >20 µg/mL |
| Nc1nc2c(ncn2COC(CO)CO)c(=O)[nH]1 | DAVIS | plaque count | 1 µg/mL |
| Cc1ccc(CSCc2cnc3c(Br)cc(Br)c(C)n23)cc1 | AD169 | plaque count | >50 µg/mL |
| CC(C)(C)[Si](OC[C@H]1C[C@@H](Cn2cnc3c(N)ncnc32)c2cn(Cc3ccccc3)nc21)(c1ccccc1)c1ccccc1 | AD169 | - | 0.5 µM |
| Nc1ccn(C[C@@H](CO)OCP(=O)(O)O)c(=O)n1 | Foscarnet-resistant | plaque count | 0.28 µM |
| CCCCCCCCc1cc2cn(C3CCCC3)c(=O)nc2o1 | DAVIS | plaque count | >20 µM |
| Cc1ccn2c(CSCc3ccccc3)c(C34CC5CC(CC(C5)C3)C4)nc2c1 | DAVIS | cytopathic effect | >0.5 µg/mL |
| CC(C)NS(=O)(=O)c1ccccc1C(=O)N/N=C/c1ccc(Br)cc1 | DAVIS | plaque count | >100 µM |
| O=C(COc1cccc2ccccc12)NN=CCc1ccccc1 | AD169 | plaque count | >20 µg/mL |
| Cc1ccn2c(CSCc3ccccc3)c(C(C)(C)C)nc2c1 | DAVIS | cytopathic effect | 1.2 µg/mL |
| CC(C)NS(=O)(=O)c1ccccc1C(=O)N/N=C/c1ccc(F)cc1 | AD169 | plaque count | >100 µM |
| CCOC(=O)/C=C/C=C/[C@H]1O[C@@H](n2ccc(=O)[nH]c2=O)[C@H](O)[C@@H]1O | DAVIS | - | >120 µM |
| O=C1c2ccccc2[C@]2(O)C3C4C[C@H]5CC(C[C@H]3C5)C4N12 | DAVIS | plaque count | >100 µg/mL |
| C/C(=N/Nc1nc(-c2ccccc2)cs1)c1ccc(NC(=O)CN2C(=O)c3ccccc3S2(=O)=O)cc1 | AD169 | plaque count | 20 µM |
| Cc1cc([C@@H]2C[C@H](O)[C@@H](CO)O2)c(Cl)cc1F | DAVIS | cytopathic effect | >200 µM |
| Cc1c(Br)cc(Br)c2ncc(CSCc3ccc(Cl)cc3)n12 | AD169 | plaque count | >20 µg/mL |
| CSc1nnc(-c2ccccc2S(=O)(=O)NC(C)C)o1 | DAVIS | plaque count | >100 µM |
| Cc1ccn2c(C3OCCO3)cnc2c1 | AD169 | - | >116 µM |
| N#CC1C(c2ccc(Cl)cc2)Nc2ccccc2S1(=O)=O | DAVIS | cytopathic effect | 2.8 µg/mL |

A second listing of 6 rows from above:

SMILES,strain,method,value
Nc1nc2c(ncn2CCC(CO)CO)c(=O)[nH]1,AD169,plaque count,>50 µg/mL
Cc1ccn2c(CSCc3ccccc3)c(C34CC5CC(CC(C5)C3)C4)nc2c1,DAVIS,cytopathic effect,>0.5 µg/mL
Cc1ccn2c(CSCc3ccccc3)c(C(C)(C)C)nc2c1,DAVIS,cytopathic effect,1.2 µg/mL
Cc1ccn2c(C3OCCO3)cnc2c1,AD169,-,>116 µM
CCCCCCCCC#Cc1c[nH]c(=O)[nH]c1=O,AD169,cytopathic effect,>400 µM
OC[C@H]1O[C@H](c2ccc(F)cc2F)C[C@@H]1O,AD169,cytopathic effect,>200 µM

Conditions beyond the fields shown may differ between rows. ECn is the concentration giving n% inhibition of infection, replication or growth.